Entries after “also recorded” stand apart in the source; their conditions may differ. Positions of bridges follow the written chain, without caps; N, C: chain ends. Residues, ends and D or L forms follow the SMILES beside them.
Assays:
SFTSV [1] = type: cell-based, SFTSV HB29 strain
SFTSV Gn = SFTSV Gn (Dabie bandavirus, UniProt R4V2Q5); type: binding, severe fever with thrombocytopenia syndrome virus
SFTSV [2] = type: cell-based, SFTSV HB29 strain; remark: listed apart in the source

Amino acid sequences for entries named in this document (tags omitted). Residues count along the entry.
UniProt R4V2Q5, 21-452 limits assumed: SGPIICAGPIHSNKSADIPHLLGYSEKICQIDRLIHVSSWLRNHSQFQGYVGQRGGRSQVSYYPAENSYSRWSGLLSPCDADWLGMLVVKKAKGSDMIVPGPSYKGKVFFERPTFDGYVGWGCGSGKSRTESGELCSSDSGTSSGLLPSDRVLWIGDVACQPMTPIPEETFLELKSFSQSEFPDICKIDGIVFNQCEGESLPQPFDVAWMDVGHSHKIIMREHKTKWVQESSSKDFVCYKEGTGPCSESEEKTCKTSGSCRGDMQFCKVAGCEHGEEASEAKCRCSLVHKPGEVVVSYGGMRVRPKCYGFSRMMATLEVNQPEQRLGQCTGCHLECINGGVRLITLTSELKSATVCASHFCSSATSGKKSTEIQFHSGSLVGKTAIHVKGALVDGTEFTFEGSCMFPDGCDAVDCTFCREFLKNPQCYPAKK

N=C(N)NCCC[C@@H]1NC(=O)[C@@H](NC(=O)[C@@H](N)CCCCN)CCCCNC(=O)[C@H](CO)NC(=O)CNC(=O)[C@H](Cc2ccccc2)NC(=O)CNC1=O [HKU-P1] (H-KKRGFGS; lactam 2-C)
SFTSV viral RNA load reduction, neutralization group (SFTSV [1]): > 40% | neutralization of SFTSV virion (in words) (SFTSV [1]): potently neutralizes the SFTSV virion | viral load reduction, neutralization group (in words) (SFTSV [1]): Significant viral load reduction | inhibition of biotin-HKU-P1 binding (in words) (SFTSV Gn): inhibited the binding of biotin-HKU-P1 to the SFTSV Gn protein; also recorded: inhibited the binding of biotin-HKU-P1 in a dose-dependent manner | Loewe additivity index, all combinations (SFTSV [2]): < 1
